## Genome-wide point mutation profile of HIV-1: non-coding ends

Data from the supplement of Al-Mawsawi et al. 2014, doi:10.1186/s12977-014-0124-6.

Positions lie in the non-coding 5' end or the 3' LTR of the genome. Changes in the 5' U3 are not copied into viral RNA and those in the 3' R are mostly lost on reverse transcription, so a low index there need not show harm (not discussed in the paper).

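Random point mutant libraries of HIV-1 NL4-3, one for each of seven fragments, were passaged in CEM T lymphocytes. Sequencing gave the RC index: frequency after two rounds over frequency in the input plasmid.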

RC index: lower means poorer replication; rough cut-offs are 0.1 (lethal) and 0.2 (tolerated). Since each clone held several changes (about five per kb), neutral changes can read low. An index over 1, which the authors read as above wild type, was rare (1.9% of all changes in the genome). Base changes are numbered along pNL4-3.

| # | base | region | RC index |
|---|---|---|---|
| 1 | A152T | 5' U3 | 0.0580 |
| 2 | T155A | 5' U3 | 0.0772 |
| 3 | G164A | 5' U3 | 0.0611 |
| 4 | T169C | 5' U3 | 0.0348 |
| 5 | A170T | 5' U3 | 0.0531 |
| 6 | A181G | 5' U3 | 0.0310 |
| 7 | C197T | 5' U3 | 0.0438 |
| 8 | C207T | 5' U3 | 0.0979 |
| 9 | C211G | 5' U3 | 0.0947 |
| 10 | C219A | 5' U3 | 0.0837 |
| 11 | A228G | 5' U3 | 0.110 |
| 12 | G230T | 5' U3 | 0.764 |
| 13 | A251G | 5' U3 | 0.556 |
| 14 | G263A | 5' U3 | 0.0692 |
| 15 | C273T | 5' U3 | 0.172 |
| 16 | T292C | 5' U3 | 0.0798 |
| 17 | A301G | 5' U3 | 0.0989 |
| 18 | A307G | 5' U3 | 0.236 |
| 19 | G311A | 5' U3 | 0.580 |
| 20 | T318C | 5' U3 | 0.341 |
| 21 | C320T | 5' U3 | 0.171 |
| 22 | A321G | 5' U3 | 0.317 |
| 23 | C359G | 5' U3 | 0.136 |
| 24 | C373G | 5' U3 | 0.389 |
| 25 | G395T | 5' U3 | 0.179 |
| 26 | A396T | 5' U3 | 0.798 |
| 27 | T398G | 5' U3 | 0.157 |
| 28 | G399A | 5' U3 | 0.287 |
| 29 | A403G | 5' U3 | 0.282 |
| 30 | G404A | 5' U3 | 0.243 |
| 31 | A410T | 5' U3 | 0.282 |
| 32 | C416A | 5' U3 | 0.292 |
| 33 | G418T | 5' U3 | 0.492 |
| 34 | C422T | 5' U3 | 0.804 |
| 35 | G455A | 5' R | 0.652 |
| 36 | G455T | 5' R | 0.383 |
| 37 | T459A | 5' R | 0.561 |
| 38 | C471A | 5' R | 0.911 |
| 39 | C471T | 5' R | 0.445 |
| 40 | C472A | 5' R | 0.694 |
| 41 | G481T | 5' R | 0.525 |
| 42 | C483T | 5' R | 0.374 |
| 43 | A500T | 5' R | 0.685 |
| 44 | G507T | 5' R | 0.699 |
| 45 | C512A | 5' R | 0.575 |
| 46 | C514G | 5' R | 0.877 |
| 47 | C549T | 5' R | 0.913 |
| 48 | A551G | 5' R | 0.337 |
| 49 | G731A | 5' U5/leader | 0.0923 |
| 50 | C738A | 5' U5/leader | 0.119 |
| 51 | G743A | 5' U5/leader | 0.123 |
| 52 | G743T | 5' U5/leader | 0.0496 |
| 53 | G748A | 5' U5/leader | 0.0271 |
| 54 | G748C | 5' U5/leader | 0.0822 |
| 55 | A758T | 5' U5/leader | 0.0533 |
| 56 | C766G | 5' U5/leader | 0.0343 |
| 57 | A773G | 5' U5/leader | 0.189 |
| 58 | A781T | 5' U5/leader | 0.0353 |
| 59 | A788T | 5' U5/leader | 0.0346 |
| 60 | C9408T | 3' U3 | 0.893 |
| 61 | A9424T | 3' U3 | 0.893 |
| 62 | G9425A | 3' U3 | 1.23 |
| 63 | G9426A | 3' U3 | 0.309 |
| 64 | T9431A | 3' U3 | 0.207 |
| 65 | T9437A | 3' U3 | 0.877 |
| 66 | T9437G | 3' U3 | 0.751 |
| 67 | G9438T | 3' U3 | 0.590 |
| 68 | G9439A | 3' U3 | 0.784 |
| 69 | G9440A | 3' U3 | 0.440 |
| 70 | C9443G | 3' U3 | 0.373 |
| 71 | G9454A | 3' U3 | 0.372 |
| 72 | G9457A | 3' U3 | 0.451 |
| 73 | G9457T | 3' U3 | 0.581 |
| 74 | G9460C | 3' U3 | 0.300 |
| 75 | G9468T | 3' U3 | 0.400 |
| 76 | G9469T | 3' U3 | 0.622 |
| 77 | G9470A | 3' U3 | 1.30 |
| 78 | A9478G | 3' U3 | 0.336 |
| 79 | G9482A | 3' U3 | 1.02 |
| 80 | G9484T | 3' U3 | 1.58 |
| 81 | G9496A | 3' U3 | 1.16 |
| 82 | C9497A | 3' U3 | 0.590 |
| 83 | A9503T | 3' U3 | 0.391 |
| 84 | A9505G | 3' U3 | 0.0711 |
| 85 | A9506T | 3' U3 | 0.180 |
| 86 | C9511T | 3' U3 | 0.754 |
| 87 | C9514T | 3' U3 | 0.375 |
| 88 | C9521A | 3' U3 | 0.225 |
| 89 | C9522G | 3' U3 | 0.827 |
| 90 | G9524C | 3' U3 | 0.162 |
| 91 | T9541A | 3' R | 0.134 |
| 92 | T9541C | 3' R | 0.292 |
| 93 | C9547A | 3' R | 0.143 |
| 94 | C9565A | 3' R | 0.0431 |
| 95 | T9578C | 3' R | 0.292 |
| 96 | C9601A | 3' R | 0.317 |